Source: PubChem BioAssay AID624099 (ICCB-Longwood, 2012)

Assay: 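Human genes that papillomavirus E2 requires to repress the HPV18 LCR promoter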 (primary screen)
Cell system: human C33A cervical carcinoma cells (HPV-negative) stably expressing BPV1 E2 and an HPV18 LCR luciferase reporter
Knock-down reagent: siRNA pool against human genes, 40 nM
Time to read-out: 72 h
Detection: 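HPV18 LCR reporter light per well, converted to plate-wise z-scores that exclude control wells, and averaged over triplicate plates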
Reading the numbers: mean z-score and z-score: higher = stronger reporter signal, weaker E2 silencing
Call rule: 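Hit if mean z-score reaches 2 and two or more of three replicate z-scores also reach 2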
The whole screen tested about 21,000 reagents; below is a part drawn at random. Over the whole deposit, 497 (2.4%) were called active. 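Higher z means weaker E2 silencing; only reporter increases were scored, and knock-downs that hurt cell survival may mask genuine repressor factors.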 Entries without a mark were called inactive. The numbers tell different reagents against one gene apart.

CCDC144A (coiled-coil domain containing 144A) scored mean z-score 0.58; z-score, replicate A = 0.66; z-score, replicate B = 0.69; z-score, replicate C = 0.39.
NT5C3A (5'-nucleotidase, cytosolic IIIA) gave mean z-score -0.45; z-score, replicate A = -0.43; z-score, replicate B = -0.68; z-score, replicate C = -0.23.
NAALADL1 (N-acetylated alpha-linked acidic dipeptidase like 1) showed mean z-score -0.44; z-score, replicate A = -0.33; z-score, replicate B = -0.24; z-score, replicate C = -0.74.
After knock-down of LOC389602 #1 the results were mean z-score 0.24; z-score, replicate A = 0.59; z-score, replicate B = 0.01; z-score, replicate C = 0.14.
LOC389602 #2 gave mean z-score 0.12; z-score, replicate A = 0.11; z-score, replicate B = 0.08; z-score, replicate C = 0.18.
After knock-down of GZMK (granzyme K), the record shows mean z-score 0.93; z-score, replicate A = 0.8; z-score, replicate B = 0.81; z-score, replicate C = 1.19.
Against ZFPM1 (zinc finger protein, FOG family member 1), the values are mean z-score 1.41; z-score, replicate A = 1.42; z-score, replicate B = 1.55; z-score, replicate C = 1.26.
For AIRIM (AFG2 interacting ribosome maturation factor) the deposit lists mean z-score -0.87; z-score, replicate A = -0.73; z-score, replicate B = -0.55; z-score, replicate C = -1.35.
With knock-down of TAFA1 (TAFA chemokine like family member 1), the screen gave mean z-score 0.33; z-score, replicate A = 0.07; z-score, replicate B = 0.47; z-score, replicate C = 0.46.
VPS26B (VPS26 retromer complex component B) gave mean z-score 0.45; z-score, replicate A = 0.43; z-score, replicate B = 0.56; z-score, replicate C = 0.36.
Against LINC02716 (long independently transcribed non-coding RNA 2716) the deposit lists mean z-score 0.58; z-score, replicate A = 0.23; z-score, replicate B = 0.66; z-score, replicate C = 0.84.
After knock-down of IFI44L (interferon induced protein 44 like), the record shows mean z-score 1.18; z-score, replicate A = 1.25; z-score, replicate B = 1.25; z-score, replicate C = 1.03.

Records above whose gene name starts with N or n (2):
NT5C3A (5'-nucleotidase, cytosolic IIIA): mean z-score = -0.45; z-score, replicate A = -0.43; z-score, replicate B = -0.68; z-score, replicate C = -0.23
NAALADL1 (N-acetylated alpha-linked acidic dipeptidase like 1): mean z-score = -0.44; z-score, replicate A = -0.33; z-score, replicate B = -0.24; z-score, replicate C = -0.74
